From US20220133842A1 (priority 2019, published 2022) come the findings set out here.

Data set [1] concerns T84 cells. The data set can be described thus: Tissue integrity by transepithelial electrical resistance. As to conditions: T84, 4 hours, 100 μM apical.
Data set [2] concerns Caco-2 cells. The description is as above. Conditions: Caco-2, 4 hours, 100 μM apical.
Data set [3] deals with IPEC-J2 cells. Described as above. Conditions: IPEC-J2, 4 hours, 100 μM apical.
Data set [4] has as its system human or porcine intestinal cells grown on inserts. As to conditions: 4 hours of exposure, range over Caco-2, T84, IPEC-J2.

For the substance Enniatin A1, the transepithelial electrical resistance in data set [1] is on record as 122 ohm.cm2; in data set [2] it was 95 ohm.cm2; in data set [3], 128 ohm.cm2. The “decrease in transepithelial electrical resistance” value in data set [4] is listed as 67-83%.
As for Destruxin A, the transepithelial electrical resistance in data set [1] is 373 ohm.cm2; in data set [2] it was 281 ohm.cm2; in data set [3], 768 ohm.cm2.
For Destruxin B, in that order: 377 ohm.cm2, 282 ohm.cm2 and 763 ohm.cm2.
